{"source": "patent US5885833", "system": "E2F1-DP1-pRb complex (pRb aa 300-928)", "assay": "EMSA", "settings": "similar affinity to B-myb site; purified recombinant protein; protein details: GST fusion, E. coli; label: 32P", "note": "The exact form of at least one protein or probe is not confirmed.", "data": [{"sequence": "GATCGACTAGTTTCGCGCCCTTTCTACTAG (double strand) [E2a adenovirus promoter probe]", "values": [{"measurement": "binding result", "result": "binds"}]}]}
